Earlier results in paper PMC8611036, “An integrated method for optimized identification of effective natural inhibitors against SARS-CoV-2 3CLpro” (Scientific Reports, 2021).
Read-outs that look alike come from different tables or passages of the source.

Molecular target: SARS-CoV-2 3CLpro (Severe acute respiratory syndrome coronavirus 2, UniProt P0DTD1)
Settings: cited from earlier work
[1] = from literature IC50, ref Liu, Pei et al. European journal of medicinal chemistry vol. 206 (2020): 112702
[2] = test set (SARS-CoV-2 3CLpro inhibitors), collected from literature

| Structure (SMILES) | pIC50 [1] | pIC50 [2] |
| --- | --- | --- |
| NC(=O)c1ccc2c(c1)C(=O)C(=O)N2Cc1ccc2ccccc2c1 | 7.347 |  |
| O=C(ON1C(=O)CCC1=O)c1ccc2c(c1)C(=O)C(=O)N2Cc1ccccc1 | 4.81 |  |
| NC(=O)c1ccc2c(c1)C(=O)C(=O)N2Cc1ccc2cc(-c3ccccc3)ccc2c1 | 4.6038 | 4.6038 |
| NC(=O)c1ccc2c(c1)C(=O)C(=O)N2Cc1ccc2cc(Br)ccc2c1 | 7.3279 |  |
| CCCCN1C(=O)C(=O)c2cc(C(N)=O)ccc21 | 4.75 | 4.75 |
| NC(=O)Cc1ccc2c(c1)C(=O)C(=O)N2Cc1ccc2ccccc2c1 | 4.407 |  |
| CCCCN1C(=O)C(=O)c2cc(I)ccc21 | 4.379 |  |
